Results of unrelated studies side by side (data: NIAID ChemDB).

Shared fields: growth or infection tests; species: HIV-1; cells: MT-2; endpoint: EC50

Two numbers with a dash give a range or band. Blank or dashed fields: not listed here. ECn is the concentration giving n% inhibition of infection, replication or growth. Lines come from different laboratories, so protocols vary.

structure | strain or isolate | changes | read by | setting | result
CC(C)C1=C2C3CCC4[C@@]5(C)CC[C@H](OC(=O)CC(C)(C)C(=O)O)C(C)(C)C5CC[C@@]4(C)[C@]3(C)CC[C@@]2(NC(=O)OCC2(C)CC2)CC1=O | IIIB | - | RT activity | 30% human serum | <0.199 µM
CC(C)C1=C2[C@H]3CC[C@@H]4[C@@]5(C)CC[C@H](OC(=O)[C@H]6C[C@@H](C(=O)O)C6(C)C)C(C)(C)[C@@H]5CC[C@@]4(C)[C@]3(C)CC[C@@]2([C@@H](O)CNCC(C)(C)NC(=O)c2cncnc2)CC1=O | 92HT599 | - | p24 / ELISA | - | <1 µM
C=C(C)[C@@H]1CC[C@]2(CO)CC[C@]3(C)[C@H](CC[C@@H]4[C@@]5(C)CC=C(c6ccc(C(=O)O)c(Cl)c6)C(C)(C)[C@@H]5CC[C@]43C)[C@@H]12 | NL4-3 | Gag P373S | luciferase | - | 1 µM
Cc1ncc(-c2cnc(OCCCF)c(F)c2)c(N2CCC(C)(C)CC2)c1[C@H](OC(C)(C)C)C(=O)O | NL4-3 | - | luminescence | - | 0.005 µM
CC1CN(S(=O)(=O)c2cc(F)ccc2CNC(=O)c2nc3n(c(=O)c2O)CCCOC32CCN(C(=O)OCc3ccccc3)CC2)CC(C)N1 | NL4-3 | - | luciferase / reporter gene | - | 0.01–0.1 µM
C=C(C)[C@@H]1CC[C@]2(CO)CC[C@]3(C)[C@H](CC[C@@H]4[C@@]5(C)CC=C(c6ccc(C(=O)O)cc6C)C(C)(C)[C@@H]5CC[C@]43C)[C@@H]12 | NL4-3 | Gag P373S | luciferase | - | 1 µM
Cc1ncn(-c2cc(F)ccc2CNC(=O)c2nc3n(c(=O)c2O)CCOC32CCN(C(=O)C(=O)N(C)C)CC2)n1 | NL4-3 | - | luciferase / reporter gene | - | ≥0.1 µM
CC(C)C1=C2[C@H]3CC[C@@H]4[C@@]5(C)CC[C@H](OC(=O)CC(C)(C)C(=O)O)C(C)(C)[C@@H]5CC[C@@]4(C)[C@]3(C)CC[C@@]2(NC(=O)C2CCNCC2)CC1=O | IIIB | - | RT activity | 30% human serum | >1 µM
C[C@]1(CO)Cn2c(=O)c(C(=O)NCCO)c(O)c3ncc(Cc4ccc(F)cc4)c(c32)O1 | IIIB | - | ATP / luminescence | - | 0.007 µM
CC(C)C1=C2[C@H]3CC[C@@H]4[C@@]5(C)CC[C@H](OC(=O)CC(C)(C)C(=O)O)C(C)(C)[C@@H]5CC[C@@]4(C)[C@]3(C)CC[C@@]2(NC(=O)C2CCCCN2C)CC1=O | IIIB | - | RT activity | 30% human serum | <0.199 µM
COc1ccnc2[nH]cc(C(=O)C(=O)N3CCN(C(=O)c4ccccc4)C[C@H]3C)c12 | LAI(GP120-M434I) Recombinant | GP120-M434I | RT activity | - | 0.017 µM
C#C[C@@]1(CO)C=C[C@H](n2cc(C)c(=O)[nH]c2=O)O1 | Clinical isolate | K103N/Y188L | recombinant virus assay | - | 0.1615 µM
[2H]C(CO)(CNC(=O)C[C@@]12CC[C@]3(C)[C@H](CC[C@@H]4[C@@]5(C)CC[C@H](OC(=O)[C@H]6C[C@@H](C(=O)O)C6(C)C)C(C)(C)[C@@H]5CC[C@]43C)C1=C(C(C)C)C(=O)C2)NC(=O)c1ccc(Cl)cc1 | 92HT599 | - | p24 / ELISA | - | <1 µM
CC(C)C1=C2C3CCC4[C@@]5(C)CC[C@H](OC(=O)CC(C)(C)C(=O)O)C(C)(C)C5CC[C@@]4(C)[C@]3(C)CC[C@@]2(NC(=O)NCc2cccnc2)CC1=O | IIIB | - | RT activity | 30% human serum | <0.199 µM
CC(C)C1=C2[C@H]3CC[C@@H]4[C@@]5(C)CC[C@H](OC(=O)[C@H]6C[C@@H](C(=O)O)C6(C)C)C(C)(C)[C@@H]5CC[C@@]4(C)[C@]3(C)CC[C@@]2([C@@H](O)CNCC(C)(C)NC(=O)c2ccc(S(C)(=O)=O)cc2)CC1=O | 92HT599 | - | p24 / ELISA | - | <1 µM
C=C(C)[C@@H]1CC[C@]2(CO)CC[C@]3(C)[C@H](CC[C@@H]4[C@@]5(C)CC=C(c6ccc(B(O)O)cc6)C(C)(C)[C@@H]5CC[C@]43C)[C@@H]12 | NL4-3 | Gag P373S | luciferase | - | 0.0134 µM
CNC(=O)c1c(O)c2ncc(Cc3ccc(F)cc3)c3c2n(c1=O)C[C@](C)(C(=O)NCCN(C)C)O3 | IIIB | - | ATP / luminescence | - | 0.225 µM
Cc1ncc(-c2ccc(OCCOc3ccccc3F)cn2)c(N2CCC(C)(C)CC2)c1[C@H](OC(C)(C)C)C(=O)O | NL4-3 | - | luminescence | - | 0.0006 µM
CNC(=O)c1c(O)c2ncc(Cc3ccc(F)cc3)c3c2n(c1=O)C[C@@](C)(C(=O)NCCO)O3 | IIIB | - | ATP / luminescence | - | 0.0305 µM
CC(C)C1=C2[C@H]3CC[C@@H]4[C@@]5(C)CC[C@H](OC(=O)CC(C)(C)C(=O)O)C(C)(C)[C@@H]5CC[C@@]4(C)[C@]3(C)CC[C@@]2(NC(=O)c2ccc[nH]c2=O)CC1=O | IIIB | - | RT activity | 30% human serum | <0.199 µM
[2H]C([2H])([2H])CNC(=O)[C@@]1(C)Cn2c(=O)c(C(=O)NC)c(O)c3ncc(Cc4ccc(F)cc4)c(c32)O1 | IIIB | - | ATP / luminescence | - | 0.017 µM
C=C(C)[C@@H]1CC[C@]2(C(=O)O)CC[C@]3(C)[C@H](CC[C@@H]4[C@@]5(C)CC=C(c6ccc(C(=O)O)c(F)c6)C(C)(C)[C@@H]5CC[C@]43C)[C@@H]12 | NL4-3 | Gag P373S | luciferase | - | 1 µM
CC(C)C1=C2C3CCC4[C@@]5(C)CC[C@H](OC(=O)CC(C)(C)C(=O)O)C(C)(C)C5CC[C@@]4(C)[C@]3(C)CC[C@@]2(NC(=O)OC[C@@H]2CCCN2C)CC1=O | IIIB | - | RT activity | 30% human serum | <0.199 µM
Cc1cc(Cl)ccc1OCCOc1ccc(-c2cnc(C)c([C@H](OC(C)(C)C)C(=O)O)c2N2CCC(C)(C)CC2)cn1 | NL4-3 | - | luminescence | - | 0.005 µM
CC(C)C1=C2C3CCC4[C@@]5(C)CC[C@H](OC(=O)CC(C)(C)C(=O)O)C(C)(C)C5CC[C@@]4(C)[C@]3(C)CC[C@@]2(NC(=O)NCC2CC2)CC1=O | IIIB | - | RT activity | 30% human serum | 0.2–0.999 µM
CC(C)C1=C2[C@H]3CC[C@@H]4[C@@]5(C)CC[C@H](OC(=O)[C@H]6C[C@@H](C(=O)O)C6(C)C)C(C)(C)[C@@H]5CC[C@@]4(C)[C@]3(C)CC[C@@]2([C@@H](O)CNC(=O)c2ccc(CN3CCN(C)CC3)cc2)CC1=O | 92HT599 | - | p24 / ELISA | - | <1 µM
Cc1nc(C(=O)N[C@@]23CC[C@]4(C)C(CCC5[C@@]6(C)CC[C@H](OC(=O)CC(C)(C)C(=O)O)C(C)(C)C6CC[C@]54C)C2=C(C(C)C)C(=O)C3)co1 | IIIB | - | RT activity | 30% human serum | <0.199 µM
CC(C)C1=C2[C@H]3CC[C@@H]4[C@@]5(C)CC[C@H](OC(=O)[C@@H]6C[C@H](C(=O)O)C6(C)C)C(C)(C)[C@@H]5CC[C@@]4(C)[C@]3(C)CC[C@@]2(CCNC(C)(C)c2ccccc2)CC1=O | 92HT599 | - | p24 / ELISA | - | <1 µM
Cc1ccc(OCCN(C)c2ccc(-c3cnc(C)c([C@H](OC(C)(C)C)C(=O)O)c3N3CCC(C)(C)CC3)nc2)c(Cl)c1 | NL4-3 | - | luminescence | - | 0.0016 µM
C=C(C)[C@@H]1CC[C@]2(C(=O)O)CC[C@]3(C)[C@H](CC[C@@H]4[C@@]5(C)CC=C(c6ccc(O)cc6)C(C)(C)[C@@H]5CC[C@]43C)[C@@H]12 | NL4-3 | Gag P373S | luciferase | - | 1 µM
Cc1ncnn1-c1cc(F)ccc1CNC(=O)c1nc2n(c(=O)c1O)CCOC21CCN(C(=O)OC(C)C)C1 | NL4-3 | - | luciferase / reporter gene | - | 0.01–0.1 µM
CC(C)C1=C2[C@H]3CC[C@@H]4[C@@]5(C)CC[C@H](OC(=O)CC(C)(C)C(=O)O)C(C)(C)[C@@H]5CC[C@@]4(C)[C@]3(C)CC[C@@]2(NC(=O)c2cn(C)cn2)CC1=O | IIIB | - | RT activity | 30% human serum | <0.199 µM
Cc1ncnn1-c1cc(F)ccc1CNC(=O)c1nc2n(c(=O)c1O)CCOC21CCN(C(=O)OCc2ccccc2)C1 | NL4-3 | - | luciferase / reporter gene | - | 0.01–0.1 µM
CC(C)C1=C2[C@H]3CC[C@@H]4[C@@]5(C)CC[C@H](OC(=O)[C@H]6C[C@@H](C(=O)O)C6(C)C)C(C)(C)[C@@H]5CC[C@@]4(C)[C@]3(C)CC[C@@]2(CCNCC(CCN)NC(=O)c2ccc(Cl)cc2)CC1=O | 92HT599 | - | p24 / ELISA | - | <1 µM
Cc1ncc(-c2ccc(OCC3CC(C)C3)nc2)c(N2CCC(C)(C)CC2)c1[C@H](OC(C)(C)C)C(=O)O | NL4-3 | - | luminescence | - | 0.0046 µM
COC(=O)N1CCC2(CC1)COCCn1c2nc(C(=O)NCc2ccc(F)cc2-n2ncnc2C)c(O)c1=O | NL4-3 | - | luciferase / reporter gene | - | 0.01–0.1 µM
C[C@H](Cn1cnc2c(N)ncnc21)OCP(=O)(O)O | Clinical isolate | M41L/D67N/K70R/Y181C/G190A/L210W/T215Y/K219E | recombinant virus assay | - | 0.0148 µM
Cc1nc(C)c(CNC(=O)C[C@@]23CC[C@]4(C)[C@H](CC[C@@H]5[C@@]6(C)CC[C@H](OC(=O)[C@H]7C[C@@H](C(=O)O)C7(C)C)C(C)(C)[C@@H]6CC[C@]54C)C2=C(C(C)C)C(=O)C3)s1 | 92HT599 | - | p24 / ELISA | - | <1 µM
N#CC1(CNC(=O)c2c(O)c3ncc(Cc4ccc(F)cc4)c4c3n(c2=O)CC(F)(F)CN4)CC1 | IIIB | - | ATP / luminescence | - | 0.0043 µM

For reference, 3 entries again:

structure | strain or isolate | changes | read by | setting | result
CC(C)C1=C2[C@H]3CC[C@@H]4[C@@]5(C)CC[C@H](OC(=O)CC(C)(C)C(=O)O)C(C)(C)[C@@H]5CC[C@@]4(C)[C@]3(C)CC[C@@]2(NC(=O)c2cn(C)cn2)CC1=O | IIIB | - | RT activity | 30% human serum | <0.199 µM
Cc1ncnn1-c1cc(F)ccc1CNC(=O)c1nc2n(c(=O)c1O)CCOC21CCN(C(=O)OCc2ccccc2)C1 | NL4-3 | - | luciferase / reporter gene | - | 0.01–0.1 µM
CNC(=O)c1c(O)c2ncc(Cc3ccc(F)cc3)c3c2n(c1=O)C[C@@](C)(C(=O)NCCO)O3 | IIIB | - | ATP / luminescence | - | 0.0305 µM